Values are the deposited “Percent Effect”, in %.
The record does not define 0% and 100%; most values in the screen are far below 50% and negative numbers occur (in some assays of this library far below -100).
The entries come from a sample that favours strong results.

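Whole-cell growth test on Mycobacterium tuberculosis, read after 3 days in glucose-containing 7H9 medium; the read-out is not stated. Compounds at 500 µM. Higher reads as more growth inhibition (inferred: compounds with an IC50 in retests scored well above the rest). About 18,000 compounds were tested under these conditions; 7.9% (about 1,400) showed 50% or more at least once.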

| # | SMILES | percent effect |
|---|---|---|
| 1 | `O=C(NCc1cccs1)c1cnccn1` | 71.56 |
| 2 | `O=C(COC1CCCCC1)NCc1c[nH]nn1` | 2.399 |
| 3 | `O=S(=O)(CCN1CCCCC1)c1ccccc1` | 32.82 |
| 4 | `Cc1noc(C)c1CC(=O)N1CCN(C)CC1` | 8.395 |
| 5 | `CCC1CN(S(=O)(=O)c2cccc(C#N)c2)CCO1` (stereo unspecified) | -0.6558 |
| 6 | `CCCc1ccc(CN2C[C@H](OCC)[C@@H](O)C2)o1` | 71.11 |
| 7 | `NCCCc1nc2ccccc2o1` | 61.32 |
| 8 | `CC(C)(C)OC(=O)N1CCCC(CN)C1` (stereo unspecified) | 21.46 |
| 9 | `CC(C)NC(=O)c1nc(-c2ccc(F)cc2)no1` | 6.868 |
| 10 | `COC(=O)C(O)CNc1ccc(C(F)(F)F)cn1` (stereo unspecified) | 59.04 |
| 11 | `CCOCC(O)CSc1nccn1-c1cccc(F)c1` (stereo unspecified) | 66.17 |
| 12 | `O=C(c1ccco1)N1CCN(CC2(O)CCNC2)CC1` (stereo unspecified) | 2.019 |
| 13 | `Cc1ccnc(NC(=O)[C@@H]2CCCO2)n1` | 2.577 |
| 14 | `NC1CCN(c2ncc(C(F)(F)F)cc2Cl)C1` (stereo unspecified) | 84.57 |
| 15 | `CC1CCCCN1CC(=O)N1CCN(S(C)(=O)=O)CC1` (stereo unspecified) | -10.38 |
| 16 | `COCCN1C(=O)C[C@@H](CN)[C@@H]1c1cnn(C(C)C)c1` | -1.586 |
| 17 | `O=C(Cc1cccc(O)c1)NCC1CCNCC1` | 0.2489 |
| 18 | `CCNCc1cccnc1N(C)CCc1ccccn1` | 17.53 |
| 19 | `CN(C)S(=O)(=O)c1cccc2nsnc12` | 3.747 |
| 20 | `CCNCc1ccc(OCC(N)=O)cc1` | -1.02 |
| 21 | `CSCc1ccc(C(=O)N(C)Cc2cnccn2)o1` | 6.548 |
| 22 | `CS(=O)(=O)c1ccc(CN2CCC(O)(CO)CC2)cc1` | -7.909 |
| 23 | `CCOc1ccc(OCC)c(NC(=O)CN)c1` | 13.66 |
| 24 | `Cn1ccnc1C1CCCNC1` (stereo unspecified) | 15.91 |
| 25 | `COc1c(CC(O)CO)cc2c(c1OC)OCO2` (stereo unspecified) | 13.04 |
| 26 | `O=C(c1ccc(Br)o1)N1CCNCC1` | 6.405 |
| 27 | `CCCNC(=O)c1n[nH]c2c1CC(C)CC2` (stereo unspecified) | -2.514 |
| 28 | `Cc1occc1C(=O)N1CCN(c2nccs2)CC1` | 28.61 |
| 29 | `Cc1noc(C)c1CN1CCNC(=O)C1c1cccs1` (stereo unspecified) | 16.56 |
| 30 | `COC(=O)N1CCN(c2ccncc2N)CC1` | 12.09 |
| 31 | `CC1(C)CN(c2ccc3nnnn3n2)C1(C)C` | 1.706 |
| 32 | `CCNC(=O)CCc1ccc(S(=O)(=O)NC2CC2)cc1` | 36.14 |
| 33 | `COc1ccc(CCN2CCNCC2)cc1` | 25.86 |
| 34 | `COCCc1nc(CC(C)N(C)C)n(CCO)n1` (stereo unspecified) | 1.711 |
| 35 | `COc1ccccc1-c1cc(N)no1` | 27.08 |
| 36 | `Cc1ccc(NCc2cccc(O)c2)cc1S(C)(=O)=O` | 73.55 |
| 37 | `Cc1cc(F)ccc1CN1CCOC(CCN)C1` (stereo unspecified) | 39.34 |
| 38 | `COc1ccc2cc(S(=O)(=O)N(C)C)ccc2c1` | 2.65 |
| 39 | `NCCCOC1CCN(C(=O)Cc2ccsc2)CC1` | 24.66 |
| 40 | `COC(=O)C(C)OC(=O)c1cccnc1SC` (stereo unspecified) | 50.32 |
| 41 | `Cc1ccc(C2CCCN2CCS(C)(=O)=O)s1` (stereo unspecified) | 61.6 |
| 42 | `CN(Cc1ccc(Br)o1)C(=O)c1nccnc1N` | 60.7 |
| 43 | `CNCC(=O)Nc1cc(Cl)c(OCCOC)c(Cl)c1` | 54.01 |
| 44 | `CCOc1ncccc1C(=O)NCC(C)N1CCCC1` (stereo unspecified) | 18.91 |
| 45 | `C=C(Br)CN1CCN(CCNC(=O)C2CCC2)CC1` | 53.08 |
| 46 | `Cc1csc(CCNC(=O)C(C)n2cccn2)n1` (stereo unspecified) | 18.39 |
| 47 | `COc1ccc(Br)c(C(=O)NCCCN)c1` | 23.45 |
| 48 | `Cc1cc(NC(=O)CN2CCCC2)n(C)n1` | -5.336 |
| 49 | `COC(=O)CCNS(=O)(=O)c1ccc(OC)cc1` | 51.7 |
| 50 | `CCc1nnsc1C(=O)N1CC(C)(C)C(C)(O)C1` (stereo unspecified) | 5.423 |
| 51 | `CCOc1ccc(CC(=O)N2CCN(CC)CC2)cc1` | 60.46 |
| 52 | `CCc1ccc(N(C(C)C(=O)NC)S(C)(=O)=O)cc1` (stereo unspecified) | 17.47 |
| 53 | `Cc1cccc2nc(C(=O)NC(C)C)cn12` | 22.65 |
| 54 | `COc1ccc(S(=O)(=O)N2CCCN(C)CC2)cc1` | 30.72 |
| 55 | `Cc1nc(CN)cc(N2CCC(N3CCCC3)CC2)n1` | 38.98 |
| 56 | `Cc1ccc(OCCN2CCOCC2)cc1` | 17.89 |
| 57 | `CNC(=O)c1cccc(NC(C)C(=O)NCC(C)C)c1` (stereo unspecified) | 14.07 |
| 58 | `CN(C)c1ccc(CNC(=O)NC2CC2)cn1` | -4.647 |
| 59 | `O=C(NCC1CC1)c1noc(-c2ccccc2F)n1` | 72.01 |
| 60 | `N#CCCCn1nnc(-c2ccccc2)n1` | 60.44 |
| 61 | `COc1cc(F)c(C(=O)N2CCC(OC)C2)c(F)c1` (stereo unspecified) | 19.11 |
| 62 | `N#Cc1ccccc1CN1CCCC1CO` (stereo unspecified) | 67.98 |
| 63 | `CN(C)CCNC(=O)c1ccc(Cl)cc1` | 51.05 |
| 64 | `Cc1ccc(NC(=O)CN2CCN(C)CC2)c(Br)c1` | 0.1307 |
| 65 | `CNC(=O)c1sccc1S(=O)(=O)N1CCCC1` | 6.664 |
| 66 | `CSc1nc2ccsc2c(=O)n1CC(=O)N1CCCC1` | 2.609 |
| 67 | `CCn1cc(CN2CC(C)OCC2(C)C)cn1` (stereo unspecified) | -7.988 |
| 68 | `COCCn1ccnc1CN(C)Cc1nnc(C)o1` | 4.742 |
| 69 | `CCC(CC)(CN)C(=O)N1CCN(C(=O)N(C)C)CC1` | -2.938 |
| 70 | `CCNC(C)(C)C(=O)N(C)Cc1ccc(OC)c(F)c1` | -2.571 |
| 71 | `Cc1cc(C(=O)NCc2ccnc(N(C)C)c2)no1` | 12.57 |
| 72 | `Cc1nc(CCN(C)C(=O)CCc2cccnc2)no1` | 8.268 |
| 73 | `CSC(C)(C)CNC(=O)NC1CCCS(=O)(=O)C1` (stereo unspecified) | 5.307 |
| 74 | `CSCC(=O)NCCc1ccc(S(C)(=O)=O)cc1` | -12.25 |
| 75 | `O=C(c1ccc(Cl)o1)N1CCN(Cc2ccco2)CC1` | 89.61 |
| 76 | `N#Cc1ccc(NCC(=O)Nc2ncccc2O)cc1` | 27.51 |
| 77 | `O=C1NCC(C(=O)NCCc2ccc(Cl)s2)N1` (stereo unspecified) | 6.619 |
| 78 | `Cc1ccccc1-c1[nH][nH]c(=O)c1CCN` | 58.51 |
| 79 | `OC1(CNc2nc(-c3ccccc3)ns2)CCSC1` (stereo unspecified) | 73.37 |
| 80 | `CCO[C@H]1CN(c2ncc(F)cn2)C[C@@H]1O` | -1.345 |
| 81 | `Cc1ccc(S(=O)(=O)NCC(=O)NC2CC2)cc1C` | 31.37 |
| 82 | `c1cc(C2CNCCN2)ccn1` (stereo unspecified) | -13.27 |
| 83 | `CC(C)C(=O)N1CCC(NC(=O)c2ccncc2)CC1` | 40.06 |
| 84 | `O=C(C1CC12CCNCC2)N1CCCCC1` (stereo unspecified) | 2.459 |
| 85 | `CCc1nn2c(=O)cc(CN3CCOC(C)C3)nc2s1` (stereo unspecified) | 16.73 |
| 86 | `CCC(CO)Nc1ncc(C(F)(F)F)cc1Cl` (stereo unspecified) | 49.42 |
| 87 | `NCCCc1nnc(N)s1` | 9.272 |
| 88 | `COc1cccc(CNc2cncc(SC)n2)n1` | 71.05 |
| 89 | `CN(C)c1cccc(NC(=O)c2cc(Cl)ccn2)n1` | -7.074 |
| 90 | `CCN(CCC(=O)OC)Cc1cccc2c1OCO2` | 21.58 |
| 91 | `COCc1csc(CN)c1` | 7.143 |
| 92 | `NC(=O)NC(=O)CCS(=O)(=O)c1cc(F)ccc1F` | 103.6 |
| 93 | `Cc1cc(C(=O)Nc2nc(C)no2)[nH]n1` | -2.901 |
| 94 | `CC(C)Cc1ccc(CS(=O)(=O)CCO)cc1` | 74.51 |
| 95 | `c1ccc(OCC2CCNC2)cc1` (stereo unspecified) | 28.97 |
| 96 | `CCc1ccc(OCn2cc(N)cn2)cc1` | 73.03 |
| 97 | `CN(C)C(=O)CC1CCNCC1` | 4.997 |

Some entries from above, unchanged:

SMILES,percent effect
CCN(CCC(=O)OC)Cc1cccc2c1OCO2,21.58
CCNCc1cccnc1N(C)CCc1ccccn1,17.53
CCOCC(O)CSc1nccn1-c1cccc(F)c1 (stereo unspecified),66.17
Cc1cc(C(=O)NCc2ccnc(N(C)C)c2)no1,12.57
Cc1ccccc1-c1[nH][nH]c(=O)c1CCN,58.51
COC(=O)C(O)CNc1ccc(C(F)(F)F)cn1 (stereo unspecified),59.04
Cc1noc(C)c1CC(=O)N1CCN(C)CC1,8.395
CN(C)c1cccc(NC(=O)c2cc(Cl)ccn2)n1,-7.074
O=C(C1CC12CCNCC2)N1CCCCC1 (stereo unspecified),2.459
CCOc1ccc(OCC)c(NC(=O)CN)c1,13.66
Cc1nc(CN)cc(N2CCC(N3CCCC3)CC2)n1,38.98

From ChEMBL document CHEMBL3988442, “University of Dundee, Small-Polar-MMV Screening Library” (2021).